From patent publication US20210227843A1, “A TEMPERING COMPOSITION FOR TEMPERING GRAIN AND CONTROLLING PATHOGENS IN AND/OR ON SAID GRAIN, AN OXIDIZING COMPOSITION FOR PREPARING SAID TEMPERING COMPOSITION, A USE OF SAID TEMPERING COMPOSITION AND A METHOD OF USE OF SAID TEMPERING COMPOSITION” (AGRI-NEO INC., priority 2017, published 2021)

Assay: Flour functionality, sensory and physical characteristics after tempering wheat in an organic flour mill (Example 1)
Conditions: 2 L per ton of wheat (citric acid 2 Kg); 16 h hold

## O=C(O)CC(O)(CC(=O)O)C(=O)O [Citric acid]
  EXTENSO 1 3 h 30 after fermen. Extensibility: 193 mm
  EXTENSO 1 3 h 30 after fermen. Ratio: 1.1 EU/mm
  EXTENSO 1 Maximum: 705 mm
  EXTENSO 1 Ratio: 3.1 EU/mm
  EXTENSO 1 Ratio Max: 4.7 EU/mm
  FOSS % Ash: 0.48%
  FOSS % absorption: 59.82%
  GPT AM/BM: 46 s
  GPT BEM: 51 Brabender unit
  GPT PM/AM: 45 s
  MIXOLAB % H2O: 60.1%
  VMI Energy: 15.8 Watt per hour
  VMI Strength: 510 Watt per hour
  VMI Time: 54 s
  size poolish: 14.2 cm

## CC(O)C(=O)O (stereo not drawn) [Lactic acid]
  % Hydration: 59.5%
  Bread size-mold: 146 mm
  EXTENSO 1 3 h 30 after fermen. Energy: 64 cm-2
  EXTENSO 1 3 h 30 after fermen. Extensibility: 179 mm
  EXTENSO 1 3 h 30 after fermen. Maximum: 270 mm
  EXTENSO 1 3 h 30 after fermen. Ratio: 1.1 EU/mm
  EXTENSO 1 3 h 30 after fermen. Ratio Max: 1.5 EU/mm
  EXTENSO 1 3 h 30 after fermen. Resistance: 200 EU
  EXTENSO 1 Energy: 148 cm-2
  EXTENSO 1 Extensibility: 169 mm
  EXTENSO 1 Maximum: 712 mm
  EXTENSO 1 Ratio: 2.5 EU/mm
  EXTENSO 1 Ratio Max: 4.2 EU/mm
  EXTENSO 1 Resistance (EU = extensograph petrin outle tunit): 421 EU
  EXTENSO 2 Division after fermen Energy: 124 cm-2
  EXTENSO 2 Division after fermen Extensibility: 136 mm
  EXTENSO 2 Division after fermen Maximum: 734 mm
  EXTENSO 2 Division after fermen Ratio: 3.9 EU/mm
  EXTENSO 2 Division after fermen Ratio Max: 5.4 EU/mm
  EXTENSO 2 Division after fermen Resistance: 532 EU
  FOSS % Ash: 0.51%
  FOSS % Proteins: 11.54%
  FOSS % absorption: 60.85%
  FOSS % gluten: 31.83%
  FOSS % humidity: 12.8%
  GPT % Gluten—Wet: 34.6%
  GPT % Protein content: 11.2%
  GPT AM/BM: 45 s
  GPT BEM: 52 Brabender unit
  GPT PM/AM: 42 s
  IDC: 338 s
  MIXOLAB % H2O: 59.6%
  MIXOLAB Aff 12 min: 0.022 Nm
  PMT: 186 s
  VMI Energy: 14.9 Watt per hour
  VMI Strength: 509 Watt per hour
  VMI Temperature: 22.6 °C
  VMI Time: 43 s
  size poolish: 15.1 cm
